# Experimental data published in patent publication US20230357367A1 (GENERATE BIOMEDICINES, published 2023).
# Biological target: WIV1 spike trimer (recombinant, in-house production) (WIV1 (bat SARS-like coronavirus))
# Assay: DELFIA, IgG titrated on coated spike trimer
binder,measurement,value
"AB-1 (antibody, V domains shown) VH: EVQLVESGAEVKKPGESLKISCKGSGYTFTRYWIGWVRQMPGKGLEWMGIIYPGDSDVRYSPSFQGHVTISADKSISTAYLQWNSLKASDTAMYYCARLPQYCSKGVCYRWFDPWGQGTLVTVSS VL: EIVLTQSPSSVSASVGDRVTITCRASQGISSWLAWYQQKPGKAPKLLIYAASSLQSGVPSRFSGSGSGTDFTLTISSLQPEDFATYYCQQGHSFPYTFGQGTNLEIK",EC50,0.061 µg/mL
